A mixed list of measured activities; the numbers were collected in NIAID ChemDB.

Common to all: tests in culture; agent: Candida kefyr

a–b is a range or a potency band.

structure	strain or isolate	method	endpoint	value
Cn1cccc1CC(=O)NNC(=O)NCCCCCCNC(=O)NNC(=O)Cc1cccn1C			MIC	7.5 µg/mL
O=C(CCn1ccnc1)c1ccc(Cl)cc1	RTCC 1074	broth dilution	MIC	8 µg/mL
CCCCN(Cc1cn(Cc2ccccc2[N+](=O)[O-])nn1)CC(O)(Cn1cncn1)c1ccc(F)cc1F			MIC80	16 µg/mL
O=C(CCn1ccnc1)c1cccc(C(O)c2ccc(Cl)cc2)c1	RTCC 1074	broth dilution	MIC	64 µg/mL
CCCCN(Cc1cn(Cc2ccc(F)cc2)nn1)CC(O)(Cn1cncn1)c1ccc(F)cc1F			MIC80	0.625 µg/mL
C[C@H]1[C@H](O)[C@@H](C)/C=C/C=C/C=C/C=C/C=C/C=C/C=C/[C@H](O[C@@H]2O[C@H](C)[C@@H](O)[C@H](N)[C@@H]2O)C[C@@H]2O[C@](O)(C[C@@H](O)C[C@@H](O)CC[C@H](O)[C@@H](O)C[C@@H](O)CC(=O)O[C@H]1C)C[C@H](O)[C@H]2C(=O)O	ATCC 2512	broth dilution / absorbance	MIC99	12.5 µM
O=C(CCn1ccnc1)c1cccc(O)c1	RTCC 1019	broth dilution	MIC	>64 µg/mL
CCCCN(Cc1cn(Cc2ccccc2Br)nn1)CC(O)(Cn1cncn1)c1ccc(F)cc1F			MIC80	0.0156 µg/mL
CCC(C)CC(C)CCCCCCCCC(=O)N[C@H]1C[C@@H](O)[C@H](NCCN)NC(=O)[C@@H]2[C@@H](O)CCN2C(=O)[C@H]([C@H](O)CCN)NC(=O)[C@H]([C@H](O)[C@@H](O)c2ccc(O)cc2)NC(=O)[C@@H]2C[C@@H](O)CN2C(=O)[C@H]([C@@H](C)O)NC1=O			MIC50	0.008–0.12 µg/mL
Cc1ccc(C(O)c2cccc(C(O)CCn3ccnc3)c2)cc1	RTCC 1074	broth dilution	MIC	>64 µg/mL
Cc1n[nH]c(=O)n1CCCCCCn1c(C)n[nH]c1=O			MIC	7.5 µg/mL
CCCCN(Cc1cn(Cc2c(Cl)cccc2Cl)nn1)CC(O)(Cn1cncn1)c1ccc(F)cc1F			MIC80	16 µg/mL
OC(CCn1ccnc1)c1ccc(Br)cc1	RTCC 1074	broth dilution	MIC	>64 µg/mL
CCOc1ccc2nc3cc(N=C4NC(=O)/C(=C\c5ccc([N+](=O)[O-])cc5)S4)ccc3c(N)c2c1	ATCC 8614	broth dilution	MFC	500 µg/mL
CC(=O)NNC(=O)NCCCCCCNC(=O)NNC(C)=O			MIC	7.5 µg/mL

For reference, 2 entries again:

structure | strain or isolate | method | endpoint | value
O=C(CCn1ccnc1)c1ccc(Cl)cc1 | RTCC 1074 | broth dilution | MIC | 8 µg/mL
CCCCN(Cc1cn(Cc2ccc(F)cc2)nn1)CC(O)(Cn1cncn1)c1ccc(F)cc1F |  |  | MIC80 | 0.625 µg/mL

An empty or dashed field is not shown. A number after MIC or MFC names an inhibition level or a share of isolates. Conditions beyond the fields shown may differ between rows.